The values that follow come from article PMC9986795, “Structural basis of DNA binding by YdaT, a functional equivalent of the CII repressor in the cryptic prophage CP-933P from Escherichia coli O157:H7” (Acta Crystallographica. Section D, Structural Biology, 2023).

Construct, isoform or probe ends are uncertain for at least one entry.

Series [1] deals with T1, YdaT (Escherichia coli O157:H7 (prophage CP-933P)) (UniProt A0A6M7H0F8). The experiment in a line: native MS. To be noted: 200 mM ammonium acetate pH 8, tetramer with one or two duplexes; recombinant protein.
Series [2] deals with T1, YdaT (Escherichia coli O157:H7 (prophage CP-933P)). The experiment in a line: SAXS. The conditions noted are these: tetramer with two OM duplexes, ensemble model; recombinant protein.

As to “TCATGCTTGATTTTCATGAATCAACTCCAT (double strand) [OM]”, the binding result in series [1] and in series [2] was “binds” each time.
